Data reported in a compilation of properties of binary mixtures (doi:10.1021/acs.jced.8b00334).

Assay: xn = mol fraction of the nth substance listed
Details: 101.3 kPa

CCCC[N+]1(C)CCCC1.O=S(=O)(F)[N-]S(=O)(=O)F + CCCC[N+]1(C)CCCC1.O=C1O[B-]2(OC1=O)OC(=O)C(=O)O2
x1 = 1
Details	mass density [kg/m3]	viscosity [mPa·s]
283.15 K	1331	174
288.15 K	1327	–
298.15 K	1319	–
303.15 K	1316	70
313.15 K	1308	48.6
318.15 K	1304	41.2
333.15 K	1293	26.4
338.15 K	1289	23.1
343.15 K	1286	–
348.15 K	1282	18.1
353.15 K	1278	16.2

CCCC[N+]1(C)CCCC1.O=C1O[B-]2(OC1=O)OC(=O)C(=O)O2 + CCCC[N+]1(C)CCCC1.O=S(=O)(F)[N-]S(=O)(=O)F
Details	mass density, x2 = 0 [kg/m3]	mass density, x2 = 0.2 [kg/m3]	mass density, x2 = 0.4 [kg/m3]	mass density, x2 = 0.6 [kg/m3]	mass density, x2 = 0.8 [kg/m3]	viscosity, x2 = 0 [mPa·s]	viscosity, x2 = 0.2 [mPa·s]	viscosity, x2 = 0.4 [mPa·s]	viscosity, x2 = 0.6 [mPa·s]	viscosity, x2 = 0.8 [mPa·s]
283.15 K	–	–	–	1310	1321	–	–	–	1372	510
288.15 K	–	–	–	–	1317	–	–	–	–	361
293.15 K	–	–	1289	1301	1313	–	–	1242	580	261
298.15 K	–	1271	1285	1297	1309	–	1362	790	399	194
303.15 K	1255	–	1280	1293	1305	1732	–	530	283	147
308.15 K	–	1263	1276	1289	1301	–	560	362	206	114
313.15 K	1246	1259	1272	–	1297	670	375	257	–	90
318.15 K	–	1254	1268	1281	1293	–	263	188	117	72
323.15 K	1238	1250	1264	1277	1289	309	190	140	91	59
328.15 K	1234	1246	1260	1273	1285	219	141	107	72	48.5
333.15 K	–	1242	1256	1269	1282	160	107	84	58	40.5
338.15 K	–	1238	1252	1265	1278	120	83	66	47.8	34.2
343.15 K	–	1234	1248	1261	1274	92	66	54	39.7	29.2
348.15 K	–	1230	1244	1257	1270	72	53	44	33.3	25.1
353.15 K	1214	–	1240	1253	1266	58	–	36.6	28.3	21.9

CCC[N+]1(C)CCCCC1.O=S(=O)(F)[N-]S(=O)(=O)F + CCCC[N+]1(C)CCCC1.O=S(=O)(F)[N-]S(=O)(=O)F
Details	mass density, x1 = 0.2 [kg/m3]	mass density, x1 = 0.4 [kg/m3]	mass density, x1 = 0.6 [kg/m3]	mass density, x1 = 0.8 [kg/m3]	mass density, x1 = 1 [kg/m3]	viscosity, x1 = 0.2 [mPa·s]	viscosity, x1 = 0.4 [mPa·s]	viscosity, x1 = 0.6 [mPa·s]	viscosity, x1 = 0.8 [mPa·s]	viscosity, x1 = 1 [mPa·s]
283.15 K	1328	1324	1322	1320	1317	148	112	104	99	91
288.15 K	1324	1320	–	1316	1314	117	89	–	80	–
293.15 K	–	1316	–	1312	1310	–	72	–	66	61
298.15 K	1317	1312	–	–	1306	76	60	–	–	51
303.15 K	–	–	1306	1304	1302	–	–	47.3	46.1	43.3
308.15 K	1309	1305	1302	1301	1298	52	41.9	40	39.2	36.9
313.15 K	1305	1301	1299	1297	–	43.9	35.8	34.3	33.6	–
318.15 K	1302	1297	–	1293	1290	37.4	30.8	–	29.1	27.6
323.15 K	1298	1293	1291	1289	1287	32.2	26.7	25.8	25.4	24.2
328.15 K	1294	–	1287	1285	1283	27.9	–	22.6	22.4	21.3
333.15 K	1290	1286	1283	–	–	24.4	20.6	20	–	–
338.15 K	1286	1282	1280	1278	1275	21.5	18.3	17.7	17.6	16.9
343.15 K	–	1278	1276	1274	1271	–	16.3	15.9	15.8	15.1
348.15 K	1279	1274	1272	1270	–	17	14.6	14.3	14.2	–
353.15 K	1275	1270	1268	1266	1264	15.2	13.2	12.9	12.8	12.4

CCCC[n+]1ccccc1.O=S(=O)(F)[N-]S(=O)(=O)F + CCCC[n+]1ccccc1.F[B-](F)(F)F
Details	mass density, x1 = 0.2 [kg/m3]	mass density, x1 = 0.4 [kg/m3]	mass density, x1 = 0.6 [kg/m3]	mass density, x1 = 0.8 [kg/m3]	mass density, x1 = 1 [kg/m3]	viscosity, x1 = 0.2 [mPa·s]	viscosity, x1 = 0.4 [mPa·s]	viscosity, x1 = 0.6 [mPa·s]	viscosity, x1 = 0.8 [mPa·s]	viscosity, x1 = 1 [mPa·s]
283.15 K	–	–	1325	1354	1382	–	–	128	94	76
288.15 K	1257	1290	1321	1350	1378	198	135	98	74	60
293.15 K	–	1286	1317	1346	1374	–	103	77	59	48.8
298.15 K	1250	1282	–	–	–	111	80	–	–	–
303.15 K	1246	1279	–	1338	–	86	64	–	39.4	–
308.15 K	–	1275	1305	1334	1361	–	51	40.7	32.9	28.1
313.15 K	–	1271	1302	1330	1357	–	42.1	33.9	27.8	24
318.15 K	–	–	1298	1326	1353	–	–	28.6	23.7	20.7
323.15 K	1232	1264	1294	1322	1349	36.4	29.4	24.4	20.5	18
328.15 K	1228	1260	1290	1318	1344	30.5	25	21	17.8	15.8
333.15 K	1225	1256	1286	1314	1340	25.8	21.5	18.2	15.6	13.9
338.15 K	–	1253	–	1310	1336	–	18.6	–	13.8	12.4
343.15 K	–	1249	1278	–	1332	–	16.3	14.1	–	11.1
348.15 K	–	1245	1274	1302	1328	–	14.3	12.5	11	10
353.15 K	1210	1242	1271	1298	1324	14.5	12.7	11.2	10	9.1

CCCC[n+]1ccccc1.F[B-](F)(F)F + CCCC[n+]1ccccc1.O=S(=O)(F)[N-]S(=O)(=O)F
x2 = 0
Details	mass density [kg/m3]	viscosity [mPa·s]
283.15 K	1223	460
288.15 K	–	315
313.15 K	–	72
318.15 K	–	57
328.15 K	–	38
333.15 K	–	31.5
343.15 K	–	22.6
348.15 K	1179	19.4
353.15 K	–	16.8

CCCC[N+]1(C)CCCC1.O=S(=O)(F)[N-]S(=O)(=O)F + CCC[N+]1(C)CCCCC1.O=S(=O)(F)[N-]S(=O)(=O)F
x2 = 0
Details	mass density [kg/m3]
293.15 K	1323
308.15 K	1312
323.15 K	1300

CCC[N+]1(C)CCCCC1.O=S(=O)([N-]S(=O)(=O)C(F)(F)F)C(F)(F)F + CCC[N+]1(C)CCCCC1.O=S(=O)(F)[N-]S(=O)(=O)F
x1 = 1
Details	mass density [kg/m3]	viscosity [mPa·s]
308.15 K	–	87
313.15 K	–	69
318.15 K	–	55
328.15 K	–	37.3
333.15 K	–	31.4
338.15 K	1374	26.6
343.15 K	–	22.9
348.15 K	1365	19.8

CCC[N+]1(C)CCCCC1.O=S(=O)(F)[N-]S(=O)(=O)F + CCC[N+]1(C)CCCCC1.O=S(=O)([N-]S(=O)(=O)C(F)(F)F)C(F)(F)F
Details	mass density, x2 = 0 [kg/m3]	mass density, x2 = 0.2 [kg/m3]	mass density, x2 = 0.4 [kg/m3]	mass density, x2 = 0.6 [kg/m3]	mass density, x2 = 0.8 [kg/m3]	viscosity, x2 = 0.2 [mPa·s]	viscosity, x2 = 0.4 [mPa·s]	viscosity, x2 = 0.6 [mPa·s]	viscosity, x2 = 0.8 [mPa·s]
283.15 K	–	1341	1363	1384	1403	108	140	168	242
288.15 K	–	1337	1359	–	1399	87	109	–	178
293.15 K	–	1333	1355	–	1395	70	86	–	134
298.15 K	–	1330	1351	1371	–	58	70	80	–
303.15 K	–	1326	1347	1367	1386	48.1	57	65	82
308.15 K	–	–	–	1363	1382	–	–	53	65
313.15 K	1294	1318	1339	–	1378	34.5	39.7	–	53
318.15 K	–	1314	1335	1355	1374	29.7	33.6	36.9	43.8
323.15 K	–	1310	1331	1351	1370	25.7	28.8	31.3	36.6
328.15 K	–	1306	1327	1347	1365	22.5	24.9	26.9	30.9
333.15 K	1279	1302	1323	1342	1361	19.9	21.7	23.2	26.4
338.15 K	–	1298	1319	1338	1357	17.6	19.1	20.3	22.8
343.15 K	–	–	1315	1334	1353	–	16.9	17.8	19.9
348.15 K	1268	1290	1311	1330	1348	14.1	15	15.8	17.4
353.15 K	–	1286	1307	1326	1344	12.7	13.5	14.1	15.4
